A mixed list of measured activities; the numbers were collected in NIAID ChemDB.

Shared fields: growth or infection tests; organism: Mycobacterium avium

Lines come from different laboratories, so protocols vary.

structure | strain | read-out | setting | value
Nc1ccc(C(=O)O)c(O)c1 | 330/88 | MIC | 14 d | 32 µM
N/C(=N\N=C\c1ccccc1Br)c1ccncc1 | INH resistant | MIC | - | 64 µg/mL
O=C(NCc1ccc(C(F)(F)F)cc1)c1c(O)cc(Br)cc1Br | MY330/88 | MIC | - | 62.5 µg/mL
Cc1ccc(-n2nnc(SCc3ccc(F)cc3)n2)cc1 | CNCTC MY330/88 | MIC | - | 125 µM
O=C(Oc1ccc(Cl)cc1C(=O)Nc1ccc(F)cc1)c1cnccn1 | 330/88 | MIC | 21 d | 16 µM
N/C(=N\N=C\c1ccc(Cl)c(Cl)c1)c1ccncc1 | INH resistant | MIC | - | 256 µg/mL
O=C(Oc1ccc(Cl)cc1)c1cnccn1 | 330/88 | MIC | 14 d | 500 µM
Cc1ccc(C)c(/C=N/N=C(\N)c2ccncc2)c1 | INH resistant | MIC | - | 256 µg/mL
O=c1oc2ccc(Cl)cc2c(=O)n1-c1ccc(Cl)cc1 | CNCTC MY330/88 | MIC | - | 8 µM
CCC(C)c1ccc(NC(=S)c2cc(Cl)ccc2O)cc1 | MY330/88 | MIC | - | 31 µM
O=C(Nc1cccc(Cl)c1)c1cc(Cl)ccc1OS(=O)(=O)c1ccccc1 | 330/88 | MIC | 21 d | 32 µM
Clc1ccc(CNc2ccc(-n3ccnc3)cc2)cc1 | 103317 | MIC | - | 1 µg/mL
Cc1ccc(CSc2nnn(-c3ccccc3)n2)cc1 | CNCTC MY330/88 | MIC | - | 250 µM
O=C(NCc1ccc(Br)cc1)c1ccc(Br)cc1O | MY330/88 | MIC | - | 16 µg/mL
CCCCCCS/C(N)=N/N=C/c1ccc2ccccc2n1 | CNCTC MY80/72 | MIC | - | 63 µM
O=C(Nc1ccc(Cl)cc1)c1ncccc1O | CNCTC MY330/88 | MIC | - | 62.5 µM
O=C(C/C=C/c1ccccc1)Nc1cccc(N2CCSCC2)c1 | 103317 | MIC | - | >16 µg/mL
Cc1ccc(CSc2nnn(-c3ccc(C)cc3)n2)cc1 | CNCTC MY330/88 | MIC | - | 32 µM
CCc1cc(C(N)=S)ccn1 | 168-4 | MBC | - | 80 µg/mL
CCS/C(N)=N/N=C/c1nc2ccccc2o1 | CNCTC MY80/72 | MIC | - | 250 µM
N/C(=N\N=C\c1cccc(Br)c1)c1ccncc1 | INH resistant | MIC | - | 64 µg/mL
N#Cc1cc(SCc2ccccc2Cl)ccn1 | CNCTC MY330/88 | MIC | - | 61.66 µM
O=c1oc2ccc([N+](=O)[O-])cc2c(=O)n1-c1ccccc1 | CNCTC MY330/88 | MIC | - | 500 µM
NC(=S)c1cc(SCc2cccc(F)c2)ccn1 | CNCTC MY330/88 | MIC | - | 15.85 µM
N/C(=N\N=C\c1ccc(Br)cc1)c1ccncc1 | INH resistant | MIC | - | 128 µg/mL
C=C1CC[C@@H](O)[C@]2(C)CC[C@@H]3[C@H](OC(=O)[C@H]3C)[C@@H]12 | - | MIC | - | >128 µg/mL
COc1ccc(C(=S)NCc2ccccc2)c(O)c1 | MY330/88 | MIC | - | 4 µg/mL
O=C(Oc1cc(Cl)ccc1C(=O)Nc1ccc(Cl)c(Cl)c1)c1cnccn1 | 330/88 | MIC | 14 d | 8 µM
COc1ccc(CNC(=S)c2ccccc2O)cc1 | MY330/88 | MIC | - | 0.98 µg/mL
CS/C(N)=N/N=C/c1ccc2ccccc2n1 | CNCTC MY66/72 | MIC | - | 125 µM
NC(=S)c1cc(SCc2cccc(Br)c2)ccn1 | CNCTC MY330/88 | MIC | - | 7.94 µM
CC[C@H]1OC(=O)[C@H](C)C(=O)[C@H](C)[C@@H](O[C@@H]2O[C@H](C)C[C@H](N(C)C)[C@H]2O)[C@](C)(OC)C[C@@H](C)C(=O)[C@H](C)[C@H]2N(CCCCn3cnc(-c4cccnc4)c3)C(=O)O[C@]12C | Isolate 1295 | MIC | - | 20 µg/mL
Oc1ccccc1C(=S)NCc1cccc(Cl)c1 | MY330/88 | MIC | - | 1 µg/mL
O=C(O)[C@H]1/C(=C/CO)O[C@@H]2CC(=O)N21 | 2 strains | MIC | - | >128 µg/mL
N/C(=N\N=C\c1ccccc1)c1ccncc1 | INH resistant | MIC | - | 128 µg/mL
CC(C)c1ccc(NC(=S)c2cc(Cl)ccc2O)cc1 | MY330/88 | MIC | - | 31 µM
CCOC(=O)c1ccc(-n2c(=O)oc3cc(Cl)ccc3c2=O)cc1 | CNCTC MY330/88 | MIC | - | 16 µM
O=C(Nc1cccc(C(F)(F)F)c1)c1cc(Cl)ccc1OS(=O)(=O)c1ccccc1 | 330/88 | MIC | 14 d | 62.5 µM
O=C(NCc1ccccc1)c1ncccc1O | CNCTC MY330/88 | MIC | - | 250 µM
Oc1ccc(Cl)cc1C(=S)Nc1ccccc1 | MY330/88 | MIC | - | 16 µM
CC(C)(C)c1ccc(CNC(=O)c2c(O)cc(Cl)cc2Cl)cc1 | MY330/88 | MIC | - | 62.5 µg/mL
Cc1ccc2c(=O)n(-c3cccc(Cl)c3)c(=O)oc2c1 | CNCTC MY330/88 | MIC | - | 31 µM
CSC(SSC(C)(C)C)C(N)=O | 225 | MIC | - | >1000 µM
Oc1cc(Cl)ccc1C(=S)NCc1ccc(F)cc1 | MY330/88 | MIC | - | 8 µg/mL
COc1ccc(CSc2nnn(-c3ccc(Cl)cc3)n2)cc1 | CNCTC MY330/88 | MIC | - | 125 µM
COc1ccc(NC(=S)c2cc(Cl)ccc2O)cc1 | MY330/88 | MIC | - | >16 µM
COc1ccc(-n2nnc(SCc3ccccc3)n2)cc1 | CNCTC MY330/88 | MIC | - | 125 µM
N#Cc1cc(SCc2ccccc2F)ccn1 | CNCTC MY330/88 | MIC | - | 126 µM
O=C(Nc1cccc(Cl)c1)c1ccc(Cl)cc1OS(=O)(=O)c1ccccc1 | 330/88 | MIC | 21 d | 500 µM
Clc1ccc(CNc2cccc(-n3ccnc3)c2)cc1 | 103317 | MIC | - | 4 µg/mL
CC1=CCC/C(C)=C/[C@H]2OC(=O)[C@@H](C)[C@@H]2CC1 | - | MIC | - | 128 µg/mL
Clc1ccc(-n2nnc(SCc3ccccc3)n2)cc1Cl | CNCTC MY330/88 | MIC | - | 125 µM
O=C(Nc1ccc(Cl)cc1)c1ccccc1O | CNCTC MY330/88 | MIC | - | 31 µM
O=C(Oc1cc(Cl)ccc1C(=O)Nc1ccc(F)cc1)c1cnccn1 | 330/88 | MIC | 14 d | 2 µM
N#Cc1cc(SCc2cc([N+](=O)[O-])cc([N+](=O)[O-])c2)ccn1 | CNCTC MY330/88 | MIC | - | 30.9 µM
CCS/C(N)=N/N=C/c1nc2ccccc2n1C | CNCTC MY80/72 | MIC | - | 500 µM
CC1=CCC[C@@]2(C)O[C@H]2[C@H]2OC(=O)[C@@H](C)[C@@H]2CC1 | - | MIC | - | 128 µg/mL
O=C(Nc1ccc(F)cc1)c1ccc(Cl)cc1OS(=O)(=O)c1ccccc1 | 330/88 | MIC | 14 d | 32 µM
O=C(Nc1ccc(Cl)cc1)c1ncccc1S | CNCTC MY330/88 | MIC | - | 32 µM
C=C1C(=O)O[C@@H]2[C@H]3C(C)=CC[C@@H](O)[C@]3(C)CC[C@@H]12 | - | MIC | - | >128 µg/mL
CN1CCN(c2cccc(NCc3ccc(Cl)cc3)c2)CC1 | 103317 | MIC | - | 16 µg/mL
O=C(NCc1ccc(C(F)(F)F)cc1)c1ncccc1O | CNCTC MY330/88 | MIC | - | 125 µM
C=CCS/C(N)=N\N=C\c1ccc(F)cc1 | ATCC 19421 | MIC | - | 12.5 µg/mL
C[C@H]1COc2c(N3CCN(C)CC3)c(F)cc3c(=O)c(C(=O)O)cn1c23 | ATCC 25291 | MIC | - | 1 µg/mL
Oc1ccc(Cl)cc1C(=S)Nc1ccc(Cl)c(Cl)c1 | MY330/88 | MIC | - | 31 µM
N#Cc1ccc(/C=N/N=C(\N)c2ccncc2)cc1 | INH resistant | MIC | - | 256 µg/mL
CC(C)(C)c1ccc(CNC(=S)c2ccccc2O)cc1 | MY330/88 | MIC | - | 0.25 µg/mL

Repeating the first 5 entries:

structure,strain,read-out,setting,value
Nc1ccc(C(=O)O)c(O)c1,330/88,MIC,14 d,32 µM
N/C(=N\N=C\c1ccccc1Br)c1ccncc1,INH resistant,MIC,-,64 µg/mL
O=C(NCc1ccc(C(F)(F)F)cc1)c1c(O)cc(Br)cc1Br,MY330/88,MIC,-,62.5 µg/mL
Cc1ccc(-n2nnc(SCc3ccc(F)cc3)n2)cc1,CNCTC MY330/88,MIC,-,125 µM
O=C(Oc1ccc(Cl)cc1C(=O)Nc1ccc(F)cc1)c1cnccn1,330/88,MIC,21 d,16 µM

An empty or dashed field is not shown.